Human monoclonal antibodies against the spike receptor-binding domain (heavy:light variable regions). IC50 against pseudoviruses bearing the spike of naturally observed variants; lower = stronger; >10 µg/ml means not reached at the top dose. No active / inactive call. The stated detection limit is 0.0005 µg/ml; values near or below 0.001 µg/ml lie at the floor of the assay.
B1: BD56-217 (protein)
chain 1: QLRLQESGPGLVKPSETLSLTCSVSGGSISSSGDYWGWTRQPPGKGLEWIGIVYSGSTNYNPSLKRRVTMSVDTSKNHFSLKLRSVTAADTAVYFCARTAWFGELDDSWGQGTLVTVSS
chain 2: QSVLTQPPSTSGTPGQRVTISCSGSNSNIGGNYVYWYQQLPGTAPKLLIYGNNRRPSGVPDRISGSKSGTSASLAISGLRSEDEADYYCAAWDDSLSGPVFGGGTTLTVL
B2: BD56-219 (protein)
chain 1: QVQLVESGGGVVQPGRSLRLSCAASGFTFNTYAMHWVRQAPGKGLEWVAVISYDGSNKYYADSAKGRFTISRDNSKNTLFLQMNSLRAEDTALFYCARDSETLAAALANSGLDSWGQGTLVTVSS
chain 2: SYVLTQPPSVSVAPGKTARITCGGISIGSKNVHWYQQKPGQAPVLVIYYDTDRPSGIPERFSGSNSGNTATLTISRVDAGDEADYYCQVWDTGVVFGGGTKLTVL
B3: BD56-224 (protein)
chain 1: QVRLVQSGAEVKKPGASVILSCKASENSLSSHYMHWVRQAPGQGLEWMGIINPSGSSTGYAQKFQGRVTMTCDTSTNTVFMELSRLRSEDTAVYYCARDGGYIPSLYGMDVWGQGTTVTVSS
chain 2: EILLTQSPATLSLSAGERVTLSCRASQSVRSYLAWYQQKPGQAPRLLIYDASKRATGVPARFSGSGSGTDFTLTISSLEPEDFAVYYCQQRTNWLHSFGQGTKLEIK
B4: BD56-229 (protein)
chain 1: EVQLVESGGGLVQPGGSLRLSCAASEITVSSNYMNWVRQAPGKGLEWVSVIYSGGSTFYADSVKGRFTISRDNSKNTLYLQMNSLRAEDTAVYYCARDLIVYGMDVWGQGTTVTVSS
chain 2: IQLTQSPSSLSASVGDRVTITCRASQGISSHLAWYQQKPGRAPKLLIYGASTLQSGVPSRFSGSGSGTDFTLTISSLQPEDFATYYCQQLDSYPLFGQGTKLEIK
B5: BD56-260 (protein)
chain 1: QMQLVQSGAEVKKPGASVRVSCKASGYTFSNNYIHWVRQAPGQGLEWVGIINPSGGSTSYAQKFEGRVTMTGDTSTSTVYMDLRSLRSEDTAVYYCARDPSFIPASSYYFDYWGQGTLVTVSS
chain 2: EIVMTQSPATLSVSPGERATLSCRASQSVSSNLAWYQQKPGQAPRLLIYGASTRATGIPGRFSGSGSGTEFTLTISSLQSEDFAVYYCQQYNKWPPPLTFGGGTKVEIK
B6: BD56-261 (protein)
chain 1: QVQLVQSGAALRKPGASVKVSCKTSGYRFTRYGITWVRQAPGQGLEWMGWISPYNGNTIYAQKLQGRVTMTTDTSTSTAYMELRSLRSDDTAVYYCAARVGYDSSGWYASDVFDMWGQGTLVTVSS
chain 2: EIVLTQSPGTLSLSPGGRATLSCRASQSVSSSFLAWYQQKPGQAPRLLIYGASNRATGIADRFRGSGSGTDFTLTISRLEPEDFAVYYCHHYGDSPPNTFGQGTKLEMK

These binders were tested against SARS-CoV-2 Omicron BA.1 spike pseudovirus (assay: pseudovirus neutralization IC50; higher = weaker neutralization).
Description: (§1)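 Single-round VSV luciferase pseudovirus mixed with antibody dilutions for 1 h and put on Huh-7 cells for about a day; IC50 from the dose curve.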

Binder | pseudovirus neutralization IC50
B1 | > 10 µg/mL
B2 | > 10 µg/mL
B3 | > 10 µg/mL
B4 | 0.0185 µg/mL
B5 | > 10 µg/mL
B6 | > 10 µg/mL

Each binder was assayed against SARS-CoV-2 Omicron BA.2 spike pseudovirus in the same assay as above.
Description: as §1

Binder | pseudovirus neutralization IC50
B1 | > 10 µg/mL
B2 | > 10 µg/mL
B3 | > 10 µg/mL
B4 | 0.0146 µg/mL
B5 | > 10 µg/mL
B6 | > 10 µg/mL

Each binder was assayed against SARS-CoV-2 Omicron BA.2.75 spike pseudovirus in the same assay as above.
Description: as §1

Binder | pseudovirus neutralization IC50
B1 | > 10 µg/mL
B2 | > 10 µg/mL
B3 | > 10 µg/mL
B4 | 0.019 µg/mL
B5 | > 10 µg/mL
B6 | > 10 µg/mL

Each binder was assayed against SARS-CoV-2 Omicron BA.5 spike pseudovirus in the same assay as above.
Description: as §1

Binder | pseudovirus neutralization IC50
B1 | > 10 µg/mL
B2 | > 10 µg/mL
B3 | > 10 µg/mL
B4 | 0.0147 µg/mL
B5 | > 10 µg/mL
B6 | > 10 µg/mL

Each binder was assayed against SARS-CoV-2 Omicron BQ.1.1 spike pseudovirus in the same assay as above.
Description: as §1

Binder | pseudovirus neutralization IC50
B1 | > 10 µg/mL
B2 | > 10 µg/mL
B3 | > 10 µg/mL
B4 | 2.31 µg/mL
B5 | > 10 µg/mL
B6 | > 10 µg/mL

These binders were tested against SARS-CoV-2 Omicron XBB spike pseudovirus in the same assay as above.
Description: as §1

Binder | pseudovirus neutralization IC50
B1 | > 10 µg/mL
B2 | > 10 µg/mL
B3 | > 10 µg/mL
B4 | 0.408 µg/mL
B5 | > 10 µg/mL
B6 | > 10 µg/mL

The binders below were run against SARS-CoV-2 early D614G spike pseudovirus in the same assay as above.
Description: as §1

Binder | pseudovirus neutralization IC50
B1 | > 10 µg/mL
B2 | > 10 µg/mL
B3 | > 10 µg/mL
B4 | 0.00742 µg/mL
B5 | > 10 µg/mL
B6 | > 10 µg/mL

— the supplement of paper PMC9931576
